Compound potency records, mixed from different reports. Data source: NIAID ChemDB in PubChem.

All rows: whole-cell or culture tests; organism: HIV-2; cell line: MT-4; measure: EC50

Lines come from different laboratories, so protocols vary.

structure,strain,mutations,method,result
O=S1(=O)N=C(Nc2ccc(F)c(F)c2F)C=C(Cc2ccc3ccccc3c2)N1,ROD,-,MTT,>143 µM
Cc1cn([C@H]2C=C[C@@H](CO)O2)c(=O)[nH]c1=O,ROD,-,cytopathic effect / trypan blue,0.32 µM
Cc1cc(C)c(Nc2nc(NC3CCN(Cc4ccncc4)CC3)nc3nc[nH]c23)c(C)c1,ROD,-,MTT,>141 µM
Cc1cn([C@H]2C[C@H](N=[N+]=[N-])[C@@H](CO)O2)c(=O)nc1NN(C)C,ROD,-,MTT / ELISA,0.015 µM
C#Cc1ccc(Nc2nccc(Oc3c(C)cc(-c4cn(-c5ccc(C(=O)OC)cc5)nn4)cc3C)n2)cc1,ROD,-,MTT,>242 µM
Cc1cc(C)c(Nc2ccc([N+](=O)[O-])c(NC3CCN(Cc4ccncc4)CC3)n2)c(C)c1,ROD,-,MTT,>31 µM
Cc1cc(C=O)cc(C)c1Oc1ncc(NC(=O)C(F)(F)F)c(Nc2ccc(C#N)cc2)n1,ROD,-,MTT,>216 µM
O=c1[nH]cnc2c1ncn2C1CC[C@@H](CO)O1,ROD,-,MTT,2.71 µM
CNc1nc(N)c2ncn([C@H]3C=C[C@@H](OCP(=O)(O)O)O3)c2n1,ROD,-,RT activity,>125 µg/mL
Cc1cn([C@H]2C[C@H](N=[N+]=[N-])[C@@H](CO)O2)c(=O)[nH]c1=O,ROD,-,visual reading,0.000642 µM
Cc1cc(C#N)cc(C)c1Oc1ccc([N+](=O)[O-])c(NC2CCN(Cc3ccc(C(N)=O)cc3)CC2)n1,ROD,-,MTT,>27 µM
COC(=O)C(Cc1ccccc1)NC(=O)[C@@H](NC(=O)[C@@H](C[C@H](O)[C@H](CC1CCCCC1)NC(=O)[C@@H](NC(=O)[C@H](Cc1ccccc1)CS(=O)(=O)C(C)(C)C)C(C)C)C(C)C)C(C)C,ROD,-,cytopathic effect / MTT,10.9 µM
O=S1(=O)N=C(Nc2ccc(Cl)cc2)C=C(Cc2cccc3ccccc23)N1,ROD,-,MTT,>147 µM
COc1ccc(CN2CCC(Nc3nc(Nc4c(C)cc(C)cc4C)c4[nH]cnc4n3)CC2)cc1,ROD,-,MTT,>15.1 µM
O=c1[nH]n(-c2nc3ccccc3c(=O)n2-c2ccc(Cl)cc2)c(=O)c2ccccc12,ROD,-,visual reading,43.68 µM
Cc1cc(C)c(Nc2ccc([N+](=O)[O-])c(NC3CCN(Cc4ccc(S(N)(=O)=O)cc4)CC3)n2)c(C)c1,ROD,-,MTT,>14 µM
C#Cc1ccc(Nc2nccc(Oc3c(C)cc(-c4cn(Cc5ccccc5)nn4)cc3C)n2)cc1,ROD,-,MTT,>8.55 µM
Cc1ccnc2c1NC(=O)c1cccnc1N2C1CC1,EHO,-,MTT,>290 µM
CCc1cc(NCc2nc3c(Cl)ccc(Cl)c3o2)c(=O)[nH]c1C,EHO,-,cytopathic effect / MTT,11.1 µM
CS(=O)(=O)c1ccc(OP(=O)(OC[C@@H]2CC[C@H](n3cnc4c(=O)[nH]cnc43)O2)OC[C@@H]2CC[C@H](n3cnc4c(=O)[nH]cnc43)O2)cc1,ROD,-,cytopathic effect / trypan blue,≥250 µM
C#Cc1ccc(Nc2nccc(Oc3c(C)cc(-c4cn(Cc5ccc(C(N)=O)cc5)nn4)cc3C)n2)cc1,ROD,-,MTT,>13.84 µM
CCOCn1c(Sc2cc(C)cc(C)c2)c(CC)c(=O)[nH]c1=O,ROD,-,cytopathic effect / MTT,>100 µM
C=C1[C@H](CO)[C@@H](O)C[C@@H]1n1cnc2c(=O)[nH]c(N)nc21,ROD,-,MTT,>28 µM
O=S1(=O)N=C(Nc2ccc(F)cc2)C=C(Cc2ccccc2)N1,ROD,-,MTT,>255 µM
Cc1cn([C@@H]2C=C[C@H](COC(=O)OC[C@@H]3C=C[C@H](n4cc(C)c(=O)[nH]c4=O)O3)O2)c(=O)[nH]c1=O,ROD,-,cytopathic effect / MTT,0.33 µM
Cc1cn([C@H]2C[C@H](N=[N+]=[N-])[C@@H](CO)O2)c(=O)[nH]c1=O,ROD,-,MTT,0.007 µM
Fc1cccc(F)c1C1SCc2nc3ccccc3n21,ROD,-,cytopathic effect,>48.6 µM
Cc1cn([C@H]2C[C@H](N=[N+]=[N-])[C@@H](CO)O2)c(=O)[nH]c1=O,ROD,-,RT activity,0.0018 µg/mL
CCOCn1c(Sc2ccccc2)c(CC)c(=O)[nH]c1=O,ROD,-,cytopathic effect / MTT,>100 µM
Fc1cccc(F)c1[C@@H]1SCc2nc3ccccc3n21,ROD,-,cytopathic effect,>86.7 µM
C=C1[C@H](CO)[C@@H](O)C[C@@H]1n1cnc2c(=O)[nH]c(N)nc21,ROD,-,MTT,>4.59 µM
O=S1(=O)NC(Cc2ccccc2)=CC(=NCCc2ccccc2)N1,ROD,-,MTT,>192 µM
CCn1c(-n2[nH]c(=O)c3ccccc3c2=O)nc2ccccc2c1=O,ROD,-,visual reading,100 µM
COc1ccc(CN[C@@H](C(=O)N[C@H](C(=O)NCc2nc3ccccc3[nH]2)C(C)C)[C@H](O)[C@H](Cc2ccccc2)NC(=O)[C@@H](NC(=O)CCc2ccc(O)cc2)C(C)(C)C)cc1,ROD,-,p24,0.7 µM
COc1ccccc1-n1c(-n2[nH]c(=O)c3ccccc3c2=O)nc2ccccc2c1=O,ROD,-,visual reading,100 µM
Cc1ccc(NC2=NS(=O)(=O)NC(Cc3ccccc3)=C2)cc1Cl,ROD,-,MTT,>175 µM
CS(=O)(=O)c1ccc(OP(=O)(OC[C@@H]2CC[C@H](n3ccc(=O)[nH]c3=O)O2)OC[C@@H]2CC[C@H](n3ccc(=O)[nH]c3=O)O2)cc1,ROD,-,cytopathic effect / trypan blue,>250 µM
Cc1cc(C#N)cc(C)c1Oc1ccc(N)c(NC2CCN(Cc3ccncc3)CC2)n1,ROD,-,MTT,>31 µM
C=COC(=O)OC[C@@H]1C=C[C@H](n2cc(C)c(=O)[nH]c2=O)O1,ROD,-,cytopathic effect / MTT,0.057 µM
Cc1cc(NC2=NS(=O)(=O)NC(Cc3ccccc3)=C2)ccc1Cl,ROD,-,MTT,>179 µM
CCOCn1c(Cc2cc(C)cc(C)c2)c(CC)c(=O)[nH]c1=O,EHO,-,cytopathic effect / MTT,>249 µM
CC(C)[C@H](NC(=O)OCc1ccccc1)C(=O)N[C@@H](Cc1ccccc1)[C@@H](O)[C@@H](NCc1ccc(Cl)cc1)C(=O)N[C@H](C(=O)NCc1nc2ccccc2[nH]1)C(C)C,EHO,-,p24,0.55 µM
CC(C)Nc1cccnc1N1CCN(C(=O)c2cc3cc(NS(C)(=O)=O)ccc3[nH]2)CC1,EHO,RT-E219D,cytopathic effect / MTT,>47.3 µM
CC(=O)Nc1cnc(Oc2c(C)cc(C)cc2C)nc1Nc1ccc(C#N)cc1,ROD,-,MTT,>323 µM
C#Cc1ccc(Nc2nccc(Oc3c(C)cc(-c4cn(Cc5ccc(S(N)(=O)=O)cc5)nn4)cc3C)n2)cc1,ROD,-,MTT,>81.64 µM
Cc1cc(C#N)cc(C)c1Oc1ccc(N)c(NC2CCN(Cc3ccc(C(N)=O)cc3)CC2)n1,ROD,-,MTT,>27 µM
COc1ccc(CN[C@@H](C(=O)N[C@H](C(=O)NCc2nc3ccccc3[nH]2)C(C)C)[C@H](O)[C@H](Cc2ccccc2)NC(=O)[C@@H](NC(=O)OCc2ccccc2)C(C)(C)C)cc1,ROD,-,p24,0.755 µM
COc1nc(N)c2ncn([C@H]3C=C[C@@H](OCP(=O)(O)O)O3)c2n1,ROD,-,RT activity,75.4 µg/mL
CC(=O)Nc1cnc(Oc2c(C)cc(C#N)cc2C)nc1Nc1ccc(C#N)cc1,ROD,-,MTT,>30.11 µM
O=S1(=O)NC(Cc2ccc3ccccc3c2)=CC(=NCCc2ccccc2)N1,ROD,-,MTT,>141 µM
C=COC(=O)OC[C@H]1O[C@@H](n2cc(C)c(=O)[nH]c2=O)C[C@@H]1N=[N+]=[N-],ROD,-,cytopathic effect / MTT,0.009 µM
Cc1cn([C@H]2CC[C@@H](COP(=O)(OC[C@@H]3CC[C@H](n4cc(C)c(=O)[nH]c4=O)O3)Oc3ccc(S(C)(=O)=O)cc3)O2)c(=O)[nH]c1=O,ROD,-,cytopathic effect / trypan blue,206 µM
Cc1cc(C#N)cc(C)c1Oc1ccc(N)c(NC2CCN(Cc3ccc(S(N)(=O)=O)cc3)CC2)n1,ROD,-,MTT,>24 µM
CCOCn1c(Sc2cc(C)cc(C)c2)c(CC)c(=O)[nH]c1=S,ROD,-,cytopathic effect / MTT,>100 µM
Cc1cn([C@@H]2C=C[C@H](COC(=O)NCCCCNC(=O)OC[C@@H]3C=C[C@H](n4cc(C)c(=O)[nH]c4=O)O3)O2)c(=O)[nH]c1=O,ROD,-,cytopathic effect / MTT,22.5 µM
CSc1ccc(OP(=O)(OC[C@@H]2CC[C@H](n3cnc4c(=O)[nH]cnc43)O2)OC[C@@H]2CC[C@H](n3cnc4c(=O)[nH]cnc43)O2)cc1,ROD,-,cytopathic effect / trypan blue,≥250 µM
NC(=O)c1ncn([C@@H]2O[C@H](CO)[C@@H](O)[C@H]2O)n1,ROD,-,cytopathic effect / trypan blue,>20 µg/mL
Cc1cc(C)c(Oc2ccc([N+](=O)[O-])c(NC3CCN(Cc4ccc(S(N)(=O)=O)cc4)CC3)n2)c(C)c1,ROD,-,MTT,>22 µM
C#Cc1ccc(Nc2nccc(Oc3c(C)cc(-c4cn(CCC(=O)OC)nn4)cc3C)n2)cc1,ROD,-,MTT,>23.76 µM
Cc1cc(C=O)cc(C)c1Oc1ncc(N)c(Nc2ccc(C#N)cc2)n1,ROD,-,MTT,≥34.5 µM
COc1ccc(CN[C@@H](C(=O)N[C@H](C(=O)NCc2nc3ccccc3[nH]2)C(C)C)[C@H](O)[C@H](Cc2ccccc2)NC(=O)[C@@H](NC(=O)[C@@](C)(O)c2ccccc2)C(C)(C)C)cc1,EHO,-,p24,0.47 µM
O=c1ccn([C@H]2CC[C@@H](CO)O2)c(=O)[nH]1,ROD,-,cytopathic effect / trypan blue,174 µM
Cc1cc(C#N)cc(C)c1Oc1ncc([N+](=O)[O-])c(Nc2ccc(C#N)cc2)n1,ROD,-,MTT,≥274 µM

A second listing of 7 rows from above:

structure | strain | mutations | method | result
CS(=O)(=O)c1ccc(OP(=O)(OC[C@@H]2CC[C@H](n3ccc(=O)[nH]c3=O)O2)OC[C@@H]2CC[C@H](n3ccc(=O)[nH]c3=O)O2)cc1 | ROD | - | cytopathic effect / trypan blue | >250 µM
CC(C)Nc1cccnc1N1CCN(C(=O)c2cc3cc(NS(C)(=O)=O)ccc3[nH]2)CC1 | EHO | RT-E219D | cytopathic effect / MTT | >47.3 µM
Cc1cc(C=O)cc(C)c1Oc1ncc(NC(=O)C(F)(F)F)c(Nc2ccc(C#N)cc2)n1 | ROD | - | MTT | >216 µM
C#Cc1ccc(Nc2nccc(Oc3c(C)cc(-c4cn(Cc5ccccc5)nn4)cc3C)n2)cc1 | ROD | - | MTT | >8.55 µM
Cc1cc(C=O)cc(C)c1Oc1ncc(N)c(Nc2ccc(C#N)cc2)n1 | ROD | - | MTT | ≥34.5 µM
Cc1cc(C)c(Nc2ccc([N+](=O)[O-])c(NC3CCN(Cc4ccncc4)CC3)n2)c(C)c1 | ROD | - | MTT | >31 µM
CCOCn1c(Sc2cc(C)cc(C)c2)c(CC)c(=O)[nH]c1=S | ROD | - | cytopathic effect / MTT | >100 µM

ECn is the concentration giving n% inhibition of infection, replication or growth. Blank or dashed fields: not listed here.